PubChem BioAssay AID1259414 | Drosophila RNAi Screening Center, 2018

- Screen: 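Host factors increasing or decreasing Wolbachia levels in cultured fly cells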 (primary screen)
- System: Drosophila JW18 cells infected with Wolbachia
- Reagents: long dsRNA against Drosophila genes, 0.25 µg dsRNA per well of a 384-well plate
- Duration: 5 days
- Treatment: cells persistently infected with Wolbachia before knock-down; no added drug
- Read-out: 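Imaged fluorescence in situ signal for Wolbachia 23S rRNA per DAPI-counted host cell, given as a robust z-score within each plate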
- Direction: Wolbachia per cell robust z: higher = more Wolbachia per host cell than the plate typical
- Active means: 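Active if absolute robust z reaches 1.5 in two or more of three replicates, leaving out multi- or no-target dsRNAs, genes unexpressed in JW18 and A1 wells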
The screen tested about 24,000 reagents; shown is a random part of those with a known target gene and a result. Of all reagents, about 1,210 (5%) got an active call. 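Inactive calls also include excluded dsRNAs with several or no targets, genes unexpressed in JW18, and well A1, regardless of score.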 Reagents against one gene are numbered here. A plus sign joins genes that one reagent is predicted to hit.

no.	target	dsRNA no.	Wolbachia per cell robust z, rep 1	Wolbachia per cell robust z, rep 2	Wolbachia per cell robust z, rep 3	Outcome
1	CG5377	1	0.0326	0.932	1.02	inactive
2	CG5377	2	0.53	0.385	0.242	inactive
3	GABPI	1	-1.1	-1.39	1.19	inactive
4	GABPI	2	0.733	0.0681	1	inactive
5	Cpr50Cb	1	-3.01	1.01	0.0363	inactive
6	Cpr50Cb	2	-0.514	-0.587	-0.934	inactive
7	Polr2K	1	-0.461	0.789	0.918	inactive
8	Pka-C2	1	1.69	0.176	1.93	inactive
9	Pka-C2	2	-5.95	0.994	0.381	inactive
10	Pka-C2	3	-0.579	-2.02	-0.248	inactive
11	CR31562	1	-0.955	-0.16	0.785	inactive
12	CR31562	2	0.217	1.05	-0.557	inactive
13	dwg	1	-0.0809	0.328	0.666	inactive
14	dwg	2	1.3	-0.926	0.272	inactive
15	Alp9	1	-0.802	0.199	0.57	inactive
16	Alp9	2	1.23	1.05	0.894	inactive
17	Taf10b	1	-0.402	0.812	0.482	inactive
18	lncRNA:CR34052	1	1.66	1.36	1.41	inactive
19	CG17450 + CG32819 + CG32820	1	-1.94	0.309	0.198	inactive
20	CG14785	1	0.823	0.671	-3.39	inactive
21	CG13679	1	0.0322	-4.37	0.457	inactive
22	CG13679	2	0.273	0.166	0.504	inactive
23	CG33191	1	0.544	1.05	1.15	inactive
24	CG12883	1	-0.136	0.839	-0.552	inactive
25	CG12883	2	0.291	-0.424	0.0212	inactive
26	CG9288 + CG42375	1	0.114	0.85	-0.555	inactive
27	Brd	1	0.294	-1.02	0.206	inactive
28	Brd	2	-0.389	0.447	0.413	inactive
29	Sgs1	1	-2.02	-0.181	-0.0607	inactive
30	CG15653	1	-3.22	0.285	0.0517	inactive
31	CG17764	1	0.0568	-0.299	0.0307	inactive
32	Ir76b	1	-0.967	0.0898	0.425	inactive
33	Polr3D	1	-1.96	0.471	1.06	inactive
34	Polr3D	2	1.63	0.973	1.49	inactive
35	CG32237	1	-0.0761	-0.45	0.615	inactive
36	CG32237	2	-0.494	-0.0252	-0.203	inactive
37	CG32237	3	-0.499	0.787	-0.326	inactive
38	Vhl	1	-0.57	0.774	-0.0619	inactive
39	Vhl	2	0.465	0.0515	-0.738	inactive
40	Zn72D	1	-0.488	-1.01	-0.381	inactive
41	stol	1	1.13	-1.26	-3.18	inactive
42	CG13204	1	0.186	0.932	1.35	inactive
43	CG13204	2	-0.0511	-0.814	1	inactive
44	Tomosyn	1	0.302	0.114	0.308	inactive
45	Tomosyn	2	-0.646	-3.43	-2.55	active
46	Tomosyn	3	-4.84	-1.37	0.672	inactive
47	Tomosyn	4	0.437	0.653	-1.69	inactive
48	Tomosyn	5	0.12	-1.48	-0.00152	inactive
49	beta3GalTII	1	-1.6	-5.11	0.602	active
50	beta3GalTII	2	-2.83	-1.27	-0.981	inactive
51	Sps2	1	-0.647	-1.29	-0.628	inactive
52	Sps2	2	0.949	-0.309	0.436	inactive
53	CG13457	1	-0.794	-0.81	-1.21	inactive
54	CG13457	2	-4.18	-2.11	0.194	inactive
55	drn	1	-3.97	0.715	-0.316	inactive
56	B9d1	1	-4.22	-0.098	-0.0205	inactive
57	CSN8	1	-0.0078	-0.515	-0.466	inactive
58	Or13a	1	-4.26	0.524	0.0369	inactive
59	Gr59a	1	0.912	-0.947	-0.748	inactive
60	Or47a	1	0.975	0.285	-0.979	inactive
61	CG33136	1	0.398	2.92	2.97	inactive
62	CG33136	2	-1.3	0.413	-0.419	inactive
63	MtnB	1	0.425	0.436	1.2	inactive
64	MtnB	2	-0.305	-0.0445	-2.4	inactive
65	Vap33	1	0.0523	1	0.112	inactive
66	DIP-eta	1	0.443	0.742	-2.24	inactive
67	Lsm10	1	0.00556	-0.795	0.473	inactive
68	CG33722 + CG18749	1	-7.8	0.0703	-1.07	inactive
69	CG33722 + CG18749	2	-0.264	0.717	-0.709	inactive
